Laboratory results reported in ChEMBL document CHEMBL4043124 (Bioorg Med Chem, 2017).

Assay: Inhibition of Burkholderia pseudomallei beta-CA incubated for 15 mins by stopped-flow CO2 hydration assay

`NS(=O)(=O)O` gave a Ki of 83 µM.

Work on `O=[As](O)(O)c1ccccc1` yielded a Ki of 92 µM.

With `NS(N)(=O)=O` the Ki was 89 µM.
